For one compound, IC50 results are on record in publication PMC12825925, “A novel highly antifungal compound ZJS-178 targeting myosin I inhibits the endocytosis and mycotoxin biosynthesis of Fusarium graminearum” (2024).

Amino acid sequences for entries named in this document (tags omitted). Residues count along the entry.
UniProt I1RCT2, 1-1214: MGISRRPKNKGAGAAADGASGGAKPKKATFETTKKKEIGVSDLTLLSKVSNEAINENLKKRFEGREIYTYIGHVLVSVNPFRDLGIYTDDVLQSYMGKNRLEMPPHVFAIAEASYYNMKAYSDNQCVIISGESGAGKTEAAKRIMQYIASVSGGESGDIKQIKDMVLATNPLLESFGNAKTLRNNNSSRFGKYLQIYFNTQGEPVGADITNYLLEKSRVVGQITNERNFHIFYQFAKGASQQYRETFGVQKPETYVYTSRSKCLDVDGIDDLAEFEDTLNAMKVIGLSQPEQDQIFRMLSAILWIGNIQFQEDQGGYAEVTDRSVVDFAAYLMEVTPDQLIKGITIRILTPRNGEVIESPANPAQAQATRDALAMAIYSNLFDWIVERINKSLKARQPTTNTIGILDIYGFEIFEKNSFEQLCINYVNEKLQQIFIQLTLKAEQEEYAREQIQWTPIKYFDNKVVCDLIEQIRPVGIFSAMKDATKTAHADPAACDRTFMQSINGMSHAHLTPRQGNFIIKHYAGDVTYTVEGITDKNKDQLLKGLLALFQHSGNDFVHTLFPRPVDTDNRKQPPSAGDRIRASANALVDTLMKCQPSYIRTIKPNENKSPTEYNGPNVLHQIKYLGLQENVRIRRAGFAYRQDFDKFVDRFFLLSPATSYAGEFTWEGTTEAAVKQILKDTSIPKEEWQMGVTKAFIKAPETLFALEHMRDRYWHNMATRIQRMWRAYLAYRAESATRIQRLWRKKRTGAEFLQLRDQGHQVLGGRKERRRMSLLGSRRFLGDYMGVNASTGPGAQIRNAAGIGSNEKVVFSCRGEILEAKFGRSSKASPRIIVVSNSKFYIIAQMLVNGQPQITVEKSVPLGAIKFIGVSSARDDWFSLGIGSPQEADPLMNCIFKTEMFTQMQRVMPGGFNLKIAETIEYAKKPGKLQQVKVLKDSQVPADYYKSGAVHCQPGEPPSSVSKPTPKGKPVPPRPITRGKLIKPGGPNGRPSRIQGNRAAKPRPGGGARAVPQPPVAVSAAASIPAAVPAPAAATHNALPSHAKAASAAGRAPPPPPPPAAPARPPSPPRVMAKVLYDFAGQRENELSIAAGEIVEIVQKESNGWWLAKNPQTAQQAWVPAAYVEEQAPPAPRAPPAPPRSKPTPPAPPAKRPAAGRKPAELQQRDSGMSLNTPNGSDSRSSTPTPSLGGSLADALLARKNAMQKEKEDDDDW
UniProt I1RCT2, 1-757 limits assumed: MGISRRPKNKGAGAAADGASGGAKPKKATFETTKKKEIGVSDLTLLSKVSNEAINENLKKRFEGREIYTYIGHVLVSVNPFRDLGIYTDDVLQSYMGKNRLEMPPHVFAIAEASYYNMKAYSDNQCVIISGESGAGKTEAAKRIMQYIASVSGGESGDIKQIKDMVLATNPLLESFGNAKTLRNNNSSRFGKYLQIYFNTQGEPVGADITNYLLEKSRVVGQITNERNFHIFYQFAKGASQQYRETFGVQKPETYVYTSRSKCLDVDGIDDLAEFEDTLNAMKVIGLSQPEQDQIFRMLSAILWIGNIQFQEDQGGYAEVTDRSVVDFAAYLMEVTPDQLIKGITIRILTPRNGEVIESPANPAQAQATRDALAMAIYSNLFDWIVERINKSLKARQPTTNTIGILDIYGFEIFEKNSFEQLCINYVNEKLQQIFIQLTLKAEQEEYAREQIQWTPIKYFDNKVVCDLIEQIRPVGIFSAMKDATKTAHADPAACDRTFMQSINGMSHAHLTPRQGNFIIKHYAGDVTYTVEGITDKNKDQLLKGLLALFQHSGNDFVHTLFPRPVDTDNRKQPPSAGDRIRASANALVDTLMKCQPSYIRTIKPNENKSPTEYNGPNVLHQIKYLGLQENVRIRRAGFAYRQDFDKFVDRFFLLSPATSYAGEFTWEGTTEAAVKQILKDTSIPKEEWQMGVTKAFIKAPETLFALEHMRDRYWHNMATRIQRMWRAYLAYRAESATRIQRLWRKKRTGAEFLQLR

Common to all, as to details: read-out: IC50 of ZJS-178 [μM]*
In experiment [1] the target is myosin I (FgMyoI) (Fusarium graminearum, UniProt I1RCT2, M375A).
Experiment [2] has as its target myosin I (FgMyoI) (Fusarium graminearum, UniProt I1RCT2). The experiment in a line: actin-activated ATPase assay with protein purified from Sf9 cells, […] actin.
Experiment [3] deals with myosin I (FgMyoI) (Fusarium graminearum, UniProt I1RCT2, S217A).

Usually IC50 stands for the concentration that inhibits the measured activity by half.

As for `CCOC(=O)/C(C#N)=C(\N)c1ccc(N(C)CC)cc1`, the IC50 in experiment [1] was 0.0428 µM; in experiment [2] it was 0.035 µM; in experiment [3] it was 0.19 µM.
